Measurements taken from article PMC9963587 (Molecules, 2023).

Tested on: LASVpv (LASV pseudotyped virus bearing LASV GPC, Josiah strain)
Experiment: LASVpv infection inhibition assay (HIV-1 pseudotyped virus bearing LASV GPC, luciferase/EGFP readout) in HEK-293 cells
Type: cell-based, Lassa virus
Details: selection index, CC50 in HEK-293 cells / IC50 against LASVpv

SMILES	SI (CC50/IC50)
CC(C)Oc1ccc(-n2cnc3cc(/C=C\c4ccc(C(C)(C)O)cc4)ccc32)cc1 [LHF−535, reference compound]	1208
COc1ccc(-n2cnc3cc(NCc4ccc(C(C)C)cc4)ccc32)cc1 [ST−193, reference compound]	1265
COc1ccc(CNc2ccc3c(c2)ncn3-c2ccc(OC)cc2)cc1 [Compound 13g, N-(4-methoxybenzyl)-1-(4-methoxyphenyl)-1H-benzo[d]imidazol-5-amine]	1805
COc1ccc(-n2cnc3cc(NCc4ccc(O)c(OC)c4)ccc32)cc1 [Compound 13b, 2-methoxy-4-(((1-(4-methoxyphenyl)-1H-benzo[d]imidazol-5-yl)amino)methyl)phenol]	1327
COc1ccc(-n2cnc3cc(NCc4ccc(C(F)(F)F)cc4)ccc32)cc1 [Compound 13j, 1-(4-methoxyphenyl)-N-(4-(trifluoromethyl)benzyl)-1H-benzo[d]imidazol-5-amine]	1706
CC(C)Oc1ccc(-n2cnc3cc(/C=C\c4ccc(C(F)(F)F)cc4)ccc32)cc1 [Compound 7g−Z, (Z)-1-(4-isopropoxyphenyl)-5-(4-(trifluoromethyl)styryl)-1H-benzo[d]imidazole]	838
CC(C)Oc1ccc(-n2cnc3cc(/C=C\c4ccc(OC(F)(F)F)cc4)ccc32)cc1 [Compound 7f−Z, (Z)-1-(4-isopropoxyphenyl)-5-(4-(trifluoromethoxy)styryl)-1H-benzo[d]imidazole]	279
COc1ccc(-n2cnc3cc(NCc4ccc(Cl)c(Cl)c4)ccc32)cc1 [Compound 13i, N-(3,4-dichlorobenzyl)-1-(4-methoxyphenyl)-1H-benzo[d]imidazol-5-amine]	1538
COc1ccc(-n2cnc3cc(NCc4cc(OC)c(O)c(OC)c4)ccc32)cc1 [Compound 13e, 2,6-dimethoxy-4-(((1-(4-methoxyphenyl)-1H-benzo[d]imidazol-5-yl)amino)methyl)phenol]	1758
Cc1ccc(/C=C\c2ccc3c(c2)ncn3-c2ccc(OC(C)C)cc2)cc1 [Compound 7c−Z, (Z)-1-(4-isopropoxyphenyl)-5-(4-methylstyryl)-1H-benzo[d]imidazole]	567
COc1ccc(-n2cnc3cc(NCc4ccc(OC)c(O)c4)ccc32)cc1 [Compound 13a, 2-methoxy-5-(((1-(4-methoxyphenyl)-1H-benzo[d]imidazol-5-yl)amino)methyl)phenol]	1316
CC(C)Oc1ccc(-n2cnc3cc(/C=C\c4ccc(C(C)(C)C)cc4)ccc32)cc1 [Compound 7a−Z, (Z)-5-(4-(tert-butyl)styryl)-1-(4-isopropoxyphenyl)-1H-benzo[d]imidazole]	770
CC(C)Oc1ccc(-n2cnc3cc(/C=C\c4ccc(OC(F)F)cc4)ccc32)cc1 [Compound 7e−Z, (Z)-5-(4-(difluoromethoxy)styryl)-1-(4-isopropoxyphenyl)-1H-benzo[d]imidazole]	520
